Reference: PubChem BioAssay AID504761 (Drosophila RNAi Screening Center, 2011)
The deposit covers about 22,000 reagents; shown is a random part of those that have a named target and a result. Over the whole deposit, 116 (0.52%) are marked active. 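Calls depend on retest data that are not deposited; infection was ranked per plate without normalising between plates; the unit of the infection score is not given.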 Raw values vary from plate to plate and are shown uncorrected. A plus sign joins genes that one reagent is predicted to hit. Further read-outs or replicates are left out here. Reagent sequences are not shown. The record does not give: the amount of reagent, the time to read-out.

Purpose: 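Genome-wide fly cell screen for genes dengue virus requires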 (primary screen)
Cells: D.Mel-2 cells from Drosophila
Reagents: long dsRNA against Drosophila genes
Challenge: infection with dengue virus type 2; dose and infection time not stated
Read-out: 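Cells stained for dengue envelope protein and imaged; percent of infected cells per well on duplicate plates, ranked by infection, with stained nuclei counted for cell number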
Reading the numbers: infection score: higher = more virus-infected cells; cell count: higher = more cells in the well
Call rule: 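Low infection ranks in the two replicates (chance level up to 0.065) followed by a retest with a 1.5-fold or larger significant decrease, p below 0.05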
Meaning of the calls: active = confirmed: knock-down lowers infection; inactive = not picked or not confirmed

For CG7011 + Prp31 [DRSC10760], what does the deposit list?
infection score, replicate 1: 14.3; cell count, replicate 1: 3338; outcome: inactive

With Mef2 [DRSC07468], how do the results read?
infection score, replicate 1: 11.2; cell count, replicate 1: 5486; outcome: inactive

Which result is listed for Mef2 [DRSC25554]?
infection score, replicate 1: 1.16; cell count, replicate 1: 6112; outcome: inactive

What is on record for Arc42 [DRSC14340]?
cell count, replicate 1: 382; outcome: inactive

With Arc42 [DRSC15627], what was measured?
infection score, replicate 1: 0.75; cell count, replicate 1: 531; outcome: inactive

What did the screen give for Rcd7 [DRSC10100]?
infection score, replicate 1: 2.75; cell count, replicate 1: 6401; outcome: inactive

What is on record for CG32110 [DRSC09220]?
infection score, replicate 1: 2.79; cell count, replicate 1: 6135; outcome: inactive

For Or49a [DRSC07493], what does the deposit list?
infection score, replicate 1: 18.3; cell count, replicate 1: 2565; outcome: inactive

With RpL36A [DRSC03055], what does the deposit list?
infection score, replicate 1: 0.79; cell count, replicate 1: 6359; outcome: inactive

What is on record for RpL36A [DRSC27375]?
infection score, replicate 1: 10.8; cell count, replicate 1: 1612; outcome: inactive

For Loxl1 [DRSC14303], what was measured?
infection score, replicate 1: 4.91; cell count, replicate 1: 6291; outcome: inactive

With Pfdn1 [DRSC02325], what was measured?
infection score, replicate 1: 6.38; cell count, replicate 1: 6241; outcome: inactive

How did the screen score Pfdn1 [DRSC26624]?
infection score, replicate 1: 2.7; cell count, replicate 1: 6139; outcome: inactive

Just “infection score, replicate 1” (3 entries from above):
CG32110 [DRSC09220] = 2.79
Or49a [DRSC07493] = 18.3
RpL36A [DRSC03055] = 0.79

The results go on.
For CG30195 [DRSC04155], what was measured?
infection score, replicate 1: 29.3; cell count, replicate 1: 5344; outcome: inactive

With mats [DRSC13562], what does the deposit list?
infection score, replicate 1: 1.84; cell count, replicate 1: 5702; outcome: inactive

What did the screen give for mats [DRSC14702]?
infection score, replicate 1: 6.17; cell count, replicate 1: 6366; outcome: inactive

What is on record for Ir51a [DRSC06256]?
infection score, replicate 1: 5.72; cell count, replicate 1: 6272; outcome: inactive

With Alp12 [DRSC02515], what does the deposit list?
infection score, replicate 1: 16.5; cell count, replicate 1: 4350; outcome: inactive

What is on record for tow [DRSC23125]?
infection score, replicate 1: 0.65; cell count, replicate 1: 6319; outcome: inactive

For tow [DRSC26759], how do the results read?
infection score, replicate 1: 2.34; cell count, replicate 1: 6277; outcome: inactive

With CG33251 (retired record) + CG9915 [DRSC20217], what was measured?
infection score, replicate 1: 13; cell count, replicate 1: 5117; outcome: inactive
